Target: T1, soluble murine Fc-dectin-1a receptor (murine, UniProt Q6QLQ4 69-244)
T1 sequence: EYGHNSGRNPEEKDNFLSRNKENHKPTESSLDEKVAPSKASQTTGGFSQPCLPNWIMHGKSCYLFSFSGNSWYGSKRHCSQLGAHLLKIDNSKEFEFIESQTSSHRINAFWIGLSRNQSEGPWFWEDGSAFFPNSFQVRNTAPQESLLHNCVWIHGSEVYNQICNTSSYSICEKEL
Assay: competitive ELISA

B1: SeqID6+CRM197 conjugate without β-glucan modification (other)
peptide: CDMPVDPD
chain: not shown
binding result: no binding

From patent publication US20250186595A1 (TRIDEM BIOSCIENCE, published 2025)
